Measured values from several laboratories, pooled; numbers as filed in NIAID ChemDB.

All rows: growth or infection tests; agent: Mycobacterium tuberculosis

Two numbers with a dash give a range or band.

structure | changes | method | tested at | strain | read-out | result
CCOC(=O)C(Sc1nc(N)c2c3c(sc2n1)CC(C(C)(C)C)CC3)C(C)(C)C | - | MTT / visual reading | - | H37Rv | MIC | >200 µg/mL
CSc1ccc(C2C(C(=O)Nc3ccc([N+](=O)[O-])cc3)=C(C)NC(C)=C2C(=O)Nc2ccc([N+](=O)[O-])cc2)cc1 | - | - | 2.5 µg/mL | H37Rv | inhibition | 97%
CO/C(=N\N=C\c1cccc(F)c1)c1ccncc1 | - | - | - | 6 PI | MIC | >20 µg/mL
Fc1ccc(CSc2nc3ccccc3[nH]2)cc1 | - | - | - | My 331/88 | MIC | 62 µM
C=C[C@]1(C)C=C2CC[C@@H]3[C@](C)(CCC[C@@]3(C)C(=O)O)[C@H]2CC1 | - | - | - | H37Rv | MIC | 15 µg/mL
CN(C)CC=C(c1ccccc1)c1ccc(-c2ccc(Br)cc2)cc1 | - | - | - | H37Ra | MIC | 20 µg/mL
CC1=C(C(=O)Nc2ccccc2Cl)C(c2ccccc2S)C(C(=O)Nc2ccccc2Cl)=C(C)N1 | - | - | - | H37Rv | EC50 | >2.5 µg/mL
CC1COc2c(N3CCSCC3)c(F)c([N+](=O)[O-])c3c(=O)c(C(=O)O)cn1c23 | - | agar | - | MDR-TB | MIC99 | 1.91 µM
CCOC(=S)SSC(=S)NCCNC(=S)SSC(=S)OCC | - | BACTEC | - | H37Rv | MIC bound | ≤12.5 µg/mL
C=C1C(=O)O[C@@H]2[C@H]3C(C)=CC[C@@H](O)[C@]3(C)CC[C@@H]12 | - | - | - | H37Rv | MIC | 64 µg/mL
NC(CSSCC(N)C(=O)O)C(=O)O | - | BACTEC | - | H37Rv | MIC | ≥128 µg/mL
FC(F)(F)c1ccc(CSc2nc3ccccc3[nH]2)cc1 | - | - | - | My 331/88 | MIC | 16 µM
NNC(=O)c1ccncc1 | katG mutant isoniazid resistant | resazurin / absorbance | - | CHUV80045776 | MIC | 2.5 µg/mL
O=C(CSc1nnc(-c2ccccn2)s1)N/N=c1/scc(-c2ccccc2)n1-c1cccc([N+](=O)[O-])c1 | - | - | - | Clinical isolate 180 | MIC | 80 µg/mL
Cc1ccc2nc(C(F)(F)F)c(C(=O)NCc3ccc4c(c3)CCO4)n2c1 | - | resazurin | - | H37Rv | MIC90 | <2 µM
C[C@H]1COc2c(N3CCSCC3)c(F)cc3c(=O)c(C(=O)O)cn1c23 | - | agar | - | MDR-TB | MIC99 | 8.59 µM
COC(=O)c1nc(C)c(C)nc1N | - | BACTEC | - | H37Rv | MIC | ≥12.5 µg/mL
COC(=O)[C@H](CCC=C(C)C)[C@H]1[C@@H]2[C@H](C[C@]3(C)C4=CC[C@H]5C(C)(C)C(=O)CC[C@]5(C)C4CC[C@@]23C)O[C@@H]1O | - | - | - | H37Rv | MIC | 16 µg/mL
CC1COc2c(N3CCN(C)CC3)c(F)cc3c(=O)c(C(=O)O)cn1c23 | - | - | - | T10904 | MIC | 1 µg/mL
CC(C)(C)C1CCc2c(sc3nc(SCC(=O)O)nc(N)c23)C1 | - | MTT / visual reading | - | H37Rv | MIC | >200 µg/mL
O=[N+]([O-])c1cccc(F)c1CSc1nc2ccccc2[nH]1 | - | - | - | My 331/88 | MIC | 62 µM
CN(C)C/C=C(/c1ccc(-c2ccc(Br)cc2)cc1)c1ccc(S(C)(=O)=O)cc1 | - | - | - | H37Rv | MIC | 34 µg/mL
C=CCNC(=S)N=Nc1c(O)n(C(C)=O)c2ccccc12 | - | - | - | H37Rv | MIC | >12.5 µg/mL
CC(=O)Nc1ccc(/C=N/NC(N)=S)cc1Cl | - | - | - | - | MIC | <6.25 µg/mL
CC(C)=CC[C@H](O)C1=CC(=O)c2c(O)ccc(O)c2C1=O | - | - | - | TAC-R | MIC | 3.2 µg/mL
O=C(CSc1nnc(-c2ccccn2)s1)N/N=c1/scc(-c2ccccc2Cl)n1-c1ccccc1 | - | - | - | Clinical isolate 331 | MIC | >80 µg/mL
C(=N\Nc1nnc2c(n1)[nH]c1ccccc12)/c1ccccc1 | - | resazurin | 6.25 µg/mL | H37Rv | inhibition | 42%
O=C1c2ccccc2C(=O)c2cc(C[P+](c3ccccc3)(c3ccccc3)c3ccccc3)ccc21 | Multidrug-resistant | resazurin | - | FJ05189 | MIC | 1 µg/mL
C=C1C(=O)O[C@@H]2C[C@H](C)[C@@H]3[C@@H](O)CC(=O)[C@@]3(C)C[C@H]12 | - | - | - | H37Rv | MIC | 128 µg/mL
Cc1ccc(-c2cs/c(=N/NC(=O)CSc3nnc(-c4ccccn4)s3)n2-c2ccccc2)cc1 | - | - | - | Clinical isolate 190 | MIC | 40 µg/mL
CN(C)C/C=C(\c1ccc(N)cc1)c1ccc(-c2ccc(Br)cc2)cc1 | - | - | - | ALI 909 | MIC | 39 µg/mL
C[C@H]1COc2c(N3CCC(n4c(=O)[nH]c5cc(Cl)ccc54)CC3)c(F)cc3c(=O)c(C(=O)O)cn1c23 | - | agar | - | - | MIC99 | 1.52 µM
CCc1nc2sc(C)cn2c1C(=O)NCc1ccc(S(F)(F)(F)(F)F)cc1 | - | resazurin | - | H37Rv | MIC90 | <2 µM
NNC(=O)c1cnn(-c2ccccc2)c1N | - | BACTEC | - | H37Rv | MIC bound | >12.5 µg/mL
CO/C(=N\N=C\c1ccc(Cl)cc1)c1ccncc1 | - | - | - | H37Rv | MIC | >20 µg/mL
CC(=O)Nc1ccc(/C=N/NC(N)=S)cc1F | - | - | - | Rifampicin-resistant | MBC | >62.5 µg/mL
CCCCN1C(=O)C(C)S/C1=N/N=C1\C(=O)Nc2ccc(Br)cc21 | - | - | - | H37Rv | MIC | >12.5 µg/mL
Cc1nc2ccc(Cl)cn2c1C(=O)NCc1ccc(N2CCC(c3ccc(OC(F)(F)F)cc3)CC2)cc1 | - | resazurin | - | H37Rv | MIC90 | <2 µM
O=C1C(=O)N(Cc2ccccc2)CC1C(=O)c1ccccc1 | - | resazurin | 6.25 µg/mL | H37Rv | inhibition | 20%
CC1=C(C(=O)Nc2cccc([N+](=O)[O-])c2)C(c2ccc(Cl)cc2Cl)C(C(=O)Nc2cccc([N+](=O)[O-])c2)=C(C)N1 | - | - | - | H37Rv | EC50 | <2.5 µg/mL
CO/C(=N\N=C\c1ccccc1F)c1ccncc1 | - | - | - | H37Rv | MIC | >20 µg/mL
CCCCN=C(N=Nc1c(O)[nH]c2ccccc12)SCC(=O)c1ccc([N+](=O)[O-])cc1 | - | - | 12 µg/mL | H37Rv | inhibition | 99%
O=C1C(=O)N(c2ccccc2)C(=O)N1c1ccccc1 | - | BACTEC | - | H37Rv | MIC bound | >12.5 µg/mL
CC(C)(C)C1CCc2c(sc3nc(SCC(=O)NCc4ccccc4)nc(N)c23)C1 | - | MTT / visual reading | - | H37Rv | MIC | >200 µg/mL
CN(C)C/C=C(/c1ccc(Br)cc1)c1ccc(-c2ccc(Br)cc2)cc1 | - | - | - | ALI 552 | MIC | 17 µg/mL
FC(F)(F)c1nc2nc(Cl)c(Cl)nc2s1 | - | resazurin | 6.25 µg/mL | H37Rv | inhibition | 6%
Cc1ccc(N2C(=O)C(C)S/C2=N\N=C2/C(=O)Nc3ccccc32)cc1 | - | - | - | H37Rv | MIC | >12.5 µg/mL
CC1=C(C(=O)Nc2ccccc2Cl)C(c2ccc(Cl)cc2Cl)C(C(=O)Nc2ccccc2Cl)=C(C)N1 | - | - | 2.5 µg/mL | H37Rv | inhibition | 11%
C/C(=N\NC(=O)c1ccncc1)c1ccc(Cl)cc1Cl | - | - | - | H37Rv | MIC | >20 µg/mL
CC1COc2c(N3CCN(C(=O)c4ccco4)CC3)c(F)c([N+](=O)[O-])c3c(=O)c(C(=O)O)cn1c23 | - | agar | - | MDR-TB | MIC99 | 1.6 µM
CC(C)(C)C1CCc2c(sc3nc(SCC(=O)Nc4ccccc4)nc(N)c23)C1 | - | MTT / visual reading | - | H37Rv | MIC | >200 µg/mL
COC1=C2CC(C)CC(OC)C(O)C(C)/C=C(\C)C(OC(N)=O)C(OC)/C=C\C=C(/C)C(=O)NC(=C(C=NN3CCOCC3)C1=O)C2=O | - | BACTEC | 12.5 µg/mL | H37Rv | inhibition | 16%
CN(C)CC=C(c1ccc(Br)cc1)c1ccc(-c2ccc(Br)cc2)cc1 | - | - | - | ALI 282 | MIC | ≤4 µg/mL
COc1ccc2c3c1OC1C(OC)(OC)C=CC4(Cl)[C@@H](C2)N(C)CC[C@]314 | - | BACTEC | 12.5 µg/mL | H37Rv | inhibition | 25%
C=C1C(=O)O[C@@H]2C[C@@]3(C)CCC[C@H](C)[C@@]34O[C@H]4[C@H]12 | - | - | - | H37Rv | MIC | 8 µg/mL
O=C1Sc2ccccc2C(=O)N2CCSC12 | - | BACTEC | - | H37Rv | MIC bound | >12.5 µg/mL
C=C1CCC[C@]2(C)C[C@H]3OC(=O)C(C)[C@H]3C[C@@H]12 | - | - | - | H37Rv | MIC | >128 µg/mL
CSC(=S)NS(=O)(=O)c1cccs1 | - | BACTEC | - | H37Rv | MIC | ≥128 µg/mL
CCCCn1c(-c2ccc([N+](=O)[O-])cc2)cs/c1=N\N=C1/C(=O)Nc2ccc(Br)cc21 | - | - | - | H37Rv | MIC | 6.25 µg/mL
CN(C)C/C=C(/c1ccccc1)c1ccc(-c2ccc(Br)cc2)cc1 | - | - | - | ALI 258 | MIC | ≤5 µg/mL
CCN1C(=O)C(C)S/C1=N/N=C1\C(=O)Nc2ccc(Br)cc21 | - | - | 12 µg/mL | H37Rv | inhibition | 2%
c1cnc2c(c1)ccc1cccnc12 | - | BACTEC | - | H37Rv | MIC bound | ≤12.5 µg/mL
N[C@@H]1CN(c2c(F)cc3c(=O)c(C(=O)O)cn([C@@H]4C[C@@H]4F)c3c2Cl)CC12CC2 | XDR | resazurin | - | Clinical strain | MIC50 | 0.25 µg/mL
CCCCCCC(/C=C/c1ccc(Cl)c(Cl)c1)=N\NC(=O)C[n+]1ccccc1.[Cl-] | - | BACTEC | 12.5 µg/mL | H37Rv | inhibition | -1%
COc1ccc(CSc2nc3ccccc3[nH]2)cc1 | - | - | - | My 331/88 | MIC | 125 µM
Cc1ccn2c(C(=O)NCc3ccc(NCCOCCN)c(F)c3)c(C)nc2c1 | - | resazurin | - | H37Rv | MIC90 | >32 µM
CCCCCCCCCCCCSC(=S)NC1c2ccccc2Oc2ccccc21 | - | BACTEC | 128 µg/mL | H37Rv | inhibition | 100%
N#Cc1cccc(CSc2nc3ccccc3[nH]2)c1 | - | - | - | My 331/88 | MIC | >62 µM
NCCCCC(C(=O)NC(Cc1ccc(O)cc1)C(=O)NC(CO)C(=O)OCc1ccc([N+](=O)[O-])cc1)N(C(=O)OCc1ccccc1)C(=O)OCc1ccccc1 | - | BACTEC | - | H37Rv | MIC bound | >12.8 µg/mL
Cc1ccn2c(C(=O)NCc3ccc(N4CCC(N)CC4)c(F)c3)c(C)nc2c1 | - | resazurin | - | H37Rv | MIC90 | <2 µM
O=C(CSc1nnc(-c2ccccn2)s1)N/N=c1/scc(-c2ccc(Cl)cc2)n1-c1ccccc1 | - | - | - | Clinical isolate 180 | MIC | 40 µg/mL
CCn1c(=N)sc2nc3ccccc3n2c1=O | - | resazurin | - | H37Rv | MIC bound | >6.25 µg/mL
C[C@H]1COc2c(N3CCC(O)(c4ccc(Cl)cc4)CC3)c(F)c([N+](=O)[O-])c3c(=O)c(C(=O)O)cn1c23 | - | agar | - | - | MIC99 | 1.51 µM
C/C(=C\Cc1ccccc1O)CCC[C@H](C)CCC[C@H](C)CCCC(C)C | - | - | - | H37Rv | MIC | 32 µg/mL
COc1ccc(CC2=CC(=O)C(C)=CC2=O)cc1 | - | BACTEC | 128 µg/mL | H37Rv | inhibition | 100%
C[C@H](CC[C@H]1OC1(C)C)[C@H]1CC[C@@]2(C)[C@@H]3CC[C@H]4C(C)(C)C(=O)CC[C@@]45C[C@@]35CC[C@]12C | - | - | - | H37Rv | MIC | 8 µg/mL
NC(=S)c1cccc(CSc2nc3ccccc3[nH]2)c1 | - | - | - | My 331/88 | MIC | 62 µM
O=C(CSc1nnc(-c2ccccn2)s1)N/N=c1/scc(-c2ccc(Br)cc2)n1-c1ccccc1 | - | - | - | Clinical isolate 331 | MIC | 80 µg/mL
Cc1cn2c(C(=O)NCc3ccc(N4CCN(C(=O)OCC(C)C)CC4)c(F)c3)c(C)nc2s1 | - | resazurin | - | H37Rv | MIC90 | 2–10 µM
CC(C)/C=C/C[C@H]1C(=O)O[C@H]2C[C@]3(C)C4=C[C@@H](O)[C@H]5C(C)(C)C(=O)CC[C@]5(C)C4CC[C@@]3(C)[C@@H]21 | - | - | - | H37Rv | MIC | 4 µg/mL
CCOC(=O)C1=C(NC(C)(C)C)OC/C1=N/NC(=O)Cc1ccccc1 | - | BACTEC | 12.5 µg/mL | H37Rv | inhibition | 6%
CCc1nc2ccc(Cl)cn2c1C(=O)NCc1ccc(N2CCCN(c3ccc(S(F)(F)(F)(F)F)cc3)CC2)cc1 | - | resazurin | - | H37Rv | MIC90 | <2 µM

The last 9 rows once more:

structure,changes,method,tested at,strain,read-out,result
C/C(=C\Cc1ccccc1O)CCC[C@H](C)CCC[C@H](C)CCCC(C)C,-,-,-,H37Rv,MIC,32 µg/mL
COc1ccc(CC2=CC(=O)C(C)=CC2=O)cc1,-,BACTEC,128 µg/mL,H37Rv,inhibition,100%
C[C@H](CC[C@H]1OC1(C)C)[C@H]1CC[C@@]2(C)[C@@H]3CC[C@H]4C(C)(C)C(=O)CC[C@@]45C[C@@]35CC[C@]12C,-,-,-,H37Rv,MIC,8 µg/mL
NC(=S)c1cccc(CSc2nc3ccccc3[nH]2)c1,-,-,-,My 331/88,MIC,62 µM
O=C(CSc1nnc(-c2ccccn2)s1)N/N=c1/scc(-c2ccc(Br)cc2)n1-c1ccccc1,-,-,-,Clinical isolate 331,MIC,80 µg/mL
Cc1cn2c(C(=O)NCc3ccc(N4CCN(C(=O)OCC(C)C)CC4)c(F)c3)c(C)nc2s1,-,resazurin,-,H37Rv,MIC90,2–10 µM
CC(C)/C=C/C[C@H]1C(=O)O[C@H]2C[C@]3(C)C4=C[C@@H](O)[C@H]5C(C)(C)C(=O)CC[C@]5(C)C4CC[C@@]3(C)[C@@H]21,-,-,-,H37Rv,MIC,4 µg/mL
CCOC(=O)C1=C(NC(C)(C)C)OC/C1=N/NC(=O)Cc1ccccc1,-,BACTEC,12.5 µg/mL,H37Rv,inhibition,6%
CCc1nc2ccc(Cl)cn2c1C(=O)NCc1ccc(N2CCCN(c3ccc(S(F)(F)(F)(F)F)cc3)CC2)cc1,-,resazurin,-,H37Rv,MIC90,<2 µM

Neighbouring rows are from separate reports. ECn: concentration that inhibits the pathogen or its effect by n%. MIC50, MIC90 and the like: level of inhibition, or share of isolates inhibited. MIC bound comes from a single tested concentration. Percent inhibition refers to the dose given; in toxicity tests it is the harm to the cells. Blank or dashed fields: not listed here.